Anti-infective test results gathered from many reports (values: NIAID ChemDB through PubChem).

Common to all: growth or infection tests; species: HIV-1; measure: EC50

Two numbers with a dash give a range or band. Lines come from different laboratories, so protocols vary. An empty or dashed field is not shown. ECn: concentration that inhibits the pathogen or its effect by n%.

smiles,method,changes,strain,cells,result
CC#Cc1cn([C@@H]2O[C@H](COP(=O)(O)OCCCCCCCCCCCC)[C@@H](O)[C@@H]2O)c(=O)[nH]c1=O,plaque count,-,HXB2,HeLa,>5 µM
CC(C)(C)C1=NC(c2ccccc2)(C(F)(F)F)NC(=O)N1,p24 / ELISA,-,HXB2,MT-2,0.0519 µM
CCCCCCCCCCCCCCCCSC1CCCC(OP(=O)([O-])OCC[N+](C)(C)C)C1,plaque count / syncytia,-,-,CEM + CEM-SS,0.42 µM
Nc1nccc2c1ncn2[C@@H]1O[C@H](CO)[C@@H](O)[C@H]1O,p24,-,14A-4/87 PRE-AZT,PBMC,0.122 µM
COCCOc1cc(Cl)ccc1CNC(=O)C[C@@]12CC[C@]3(C)[C@H](CC[C@@H]4[C@@]5(C)CC[C@H](OC(=O)[C@H]6C[C@@H](C(=O)O)C6(C)C)C(C)(C)[C@@H]5CC[C@]43C)C1=C(C(C)C)C(=O)C2,p24 / ELISA,-,92HT599,MT-2,<1 µM
CC#Cc1cn([C@@H]2O[C@H](COP(=O)(OCC)Oc3ccccc3)[C@@H](O)[C@@H]2O)c(=O)[nH]c1=O,plaque count,-,HXB2,HeLa,>50 µM
CC(C)C1=C2[C@H]3CC[C@@H]4[C@@]5(C)CC[C@H](OC(=O)[C@H]6C[C@@H](C(=O)O)C6(C)C)C(C)(C)[C@@H]5CC[C@@]4(C)[C@]3(C)CC[C@@]2(CCNCC(F)(CO)NC(=O)c2ccc(Cl)cc2)CC1=O,p24 / ELISA,-,92HT599,MT-2,<1 µM
CC(=O)Oc1cc(C(=O)Nc2ccc(S(=O)(=O)Nc3ccccc3Br)cc2)cc(OC(C)=O)c1OC(C)=O,-,-,-,MT-4,>25 µM
CC#Cc1cn([C@@H]2O[C@H](COP(=O)(Oc3ccccc3)Oc3ccc([N+](=O)[O-])cc3)[C@@H](O)[C@@H]2O)c(=O)[nH]c1=O,plaque count,-,HXB2,HeLa,>50 µM
Nc1nccc2c1ncn2[C@@H]1C=C(CO)[C@@H](O)[C@H]1O,syncytia,-,MN,H9,0.001 µM
COC(=O)c1ccc(-c2c(C)nc3c(N4CC[C@@H](NC(C)=O)C4)cc(C)nn23)cc1F,p24,-,-,H9,0.4 µM
Nc1nccc2nnn([C@@H]3O[C@H](CO)[C@@H](O)[C@H]3O)c12,cytopathic effect,-,-,MT-4,>398 µM
COCCCCCCCCCCCC(=O)O,syncytia,-,IIIB,MT-4,6.8 µM
OC[C@H]1O[C@@H](n2nnc3ccnc(Cl)c32)[C@H](O)[C@@H]1O,cytopathic effect,-,-,MT-4,>15 µM
COc1ccc(-c2c(C)nc3c(N4CC[C@@H](NC(C)=O)C4)cc(C)nn23)cc1F,p24,-,-,H9,0.6 µM
CC#Cc1cn([C@@H]2O[C@H](COP(=O)(O)Oc3ccccc3Cl)[C@@H](O)[C@@H]2O)c(=O)[nH]c1=O,plaque count,-,HXB2,HeLa,>50 µM
C#CCNC(=O)NC(CCCCNC(=O)OCc1ccccc1)C(=O)OCc1ccccc1,cytopathic effect / XTT,-,IIIB,CEM-IW + CEM,>82.3 µM
COCCCCCCCCCCCC(=O)OC[C@H]1O[C@@H](n2cc(C)c(=O)[nH]c2=S)C[C@@H]1F,syncytia,-,-,MT-2,~0.05 µM
Cc1ccc(CNC(=O)C[C@@]23CC[C@]4(C)[C@H](CC[C@@H]5[C@@]6(C)CC[C@H](OC(=O)[C@H]7C[C@@H](C(=O)O)C7(C)C)C(C)(C)[C@@H]6CC[C@]54C)C2=C(C(C)C)C(=O)C3)cc1,p24 / ELISA,-,92HT599,MT-2,<1 µM
COc1ccc2c(c1OC)C(CC(C)=O)N(C)c1c-2ccc2cc3c(cc12)OCO3,p24,-,IIIB,H9,1.77 µM
CNC(=O)NCCCCC(NC(=O)OCc1ccccc1)C(=O)OCc1ccccc1,cytopathic effect / XTT,-,IIIB,CEM-IW + CEM,>40.2 µM
C[C@H](CCC=C(c1cc(Cl)c(O)c(C(=O)O)c1)c1cc(Cl)c(O)c(C(=O)O)c1)[C@H]1CC[C@H]2[C@@H]3CC[C@@H]4CCCC[C@]4(C)[C@H]3CC[C@]12C,cytopathic effect / XTT,-,-,CEM,19–41 µM
CC(C)C1=C2[C@H]3CC[C@@H]4[C@@]5(C)CC[C@H](OC(=O)[C@H]6C[C@@H](C(=O)O)C6(C)C)C(C)(C)[C@@H]5CC[C@@]4(C)[C@]3(C)CC[C@@]2(CCNC(=O)c2ccc(CN3CCOCC3)cc2)CC1=O,p24 / ELISA,-,92HT599,MT-2,<1 µM
OC[C@H]1O[C@@H](n2nnc3c(Cl)nccc32)C[C@@H]1O,cytopathic effect,-,-,MT-4,>272 µM
O=C(/C=C/c1ccc(O)c(O)c1)Nc1ccc(S(=O)(=O)Nc2cccc(Cl)c2F)cc1,-,-,-,MT-4,19 µM
COc1c(Cl)cc(C(=CCC[C@H]2CC[C@@]3(C)[C@@H](CC[C@@H]4[C@@H]3CC[C@]3(C)[C@@H]([C@H](C)CCCC(C)C)CC[C@@H]43)C2)c2cc(Cl)c(OC)c(C(=O)O)c2)cc1C(=O)O,cytopathic effect / XTT,-,-,CEM,6.1–22 µM
CCCCCCCCCCCC(=O)NCC(COP(=O)([O-])OCC[N+](C)(C)C)OCCCCCCCC,plaque count / syncytia,-,-,CEM + CEM-SS,0.64 µM
CC#Cc1cn([C@@H]2O[C@H](COP(=O)(O)OCCCCCCCCCCCCCCCC)[C@@H](O)[C@@H]2O)c(=O)[nH]c1=O,plaque count,-,HXB2,HeLa,>5 µM
CCCCCCCCCCCCCCCCC(c1ccc(O)c(C(=O)O)c1)c1ccc(O)c(C(=O)O)c1,cytopathic effect / XTT,-,-,CEM,3.29–32.9 µM
CNC(=O)NC(CCCCNC(=O)OCc1ccccc1)C(=O)OCc1ccccc1,cytopathic effect / XTT,-,IIIB,CEM-IW + CEM,>44.1 µM
CC#Cc1cn([C@@H]2O[C@H](COP(=O)(O)Oc3ccc(OC)cc3)[C@@H](O)[C@@H]2O)c(=O)[nH]c1=O,plaque count,-,HXB2,HeLa,>50 µM
CC(=O)N[C@@H]1CCN(c2cc(C)nn3c(I)c(C)nc23)C1,p24,-,-,H9,>10 µM
Cc1cn([C@H]2C[C@H](F)[C@@H](COC(=O)CCCCCCCCCCCN=[N+]=[N-])O2)c(=S)[nH]c1=O,syncytia,-,-,MT-2,~0.05 µM
CC(C)C1=C2[C@H]3CC[C@@H]4[C@@]5(C)CC[C@H](OC(=O)[C@H]6C[C@@H](C(=O)O)C6(C)C)C(C)(C)[C@@H]5CC[C@@]4(C)[C@]3(C)CC[C@@]2(CCNCc2csc(N)n2)CC1=O,p24 / ELISA,-,92HT599,MT-2,<1 µM
C#CCN(N=O)C(=O)NCCCCC(NC(=O)OCc1ccccc1)C(=O)OCc1ccccc1,cytopathic effect / XTT,-,IIIB,CEM-IW + CEM,>10.8 µM
O=C(/C=C/c1ccc(O)c(O)c1)Nc1ccc(S(=O)(=O)Nc2ccc(F)c(F)c2)cc1,-,-,-,MT-4,20 µM
CCC(=O)c1ccc(F)c([C@@H]2C[C@@H]2NC(=O)Nc2ccc(C#N)cn2)c1O,β-galactosidase / luminescence,NNRTI-resistant (RT L100I),LAI,TZM-bl,0.00503 µM
Nc1nccc2c1nnn2[C@H]1CC[C@@H](CO)O1,cytopathic effect,-,-,MT-4,>387 µM
COc1ccc(-c2c(C)nc3c(N4CC[C@@H](NC(=O)[C@@H](OC)c5ccccc5)C4)cc(C)nn23)cc1OC,p24,-,-,H9,0.4 µM
COCCOc1ccc(C(=O)NCC[C@@]23CC[C@]4(C)[C@H](CC[C@@H]5[C@@]6(C)CC[C@H](OC(=O)[C@H]7C[C@@H](C(=O)O)C7(C)C)C(C)(C)[C@@H]6CC[C@]54C)C2=C(C(C)C)C(=O)C3)cc1,p24 / ELISA,-,92HT599,MT-2,<1 µM
COc1ccc(-c2c(C)nc3c(N4CC[C@@H](NC(=O)C(F)(F)c5ccccc5)C4)cc(C)nn23)cc1OC,p24,-,-,H9,0.1 µM
CN(N=O)C(=O)NC(CCCCNC(=O)OCc1ccccc1)C(=O)OCc1ccccc1,cytopathic effect / XTT,-,IIIB,CEM-IW + CEM,>21.8 µM
CC(C)CCC[C@@H](C)[C@H]1CC[C@H]2[C@@H]3CC[C@H]4C[C@@H](CCC=C(c5cc(Br)c(O)c(C(=O)O)c5)c5cc(Br)c(O)c(C(=O)O)c5)CC[C@]4(C)[C@H]3CC[C@]12C,cytopathic effect / XTT,-,-,CEM,6.4–42 µM
CC(=O)N[C@@H]1CCN(c2cc(C)nn3c(-c4ccc5c(c4)OCO5)c(C)nc23)C1,p24,-,-,H9,<1 µM

Repeating the first 6 entries:

smiles | method | changes | strain | cells | result
CC#Cc1cn([C@@H]2O[C@H](COP(=O)(O)OCCCCCCCCCCCC)[C@@H](O)[C@@H]2O)c(=O)[nH]c1=O | plaque count | - | HXB2 | HeLa | >5 µM
CC(C)(C)C1=NC(c2ccccc2)(C(F)(F)F)NC(=O)N1 | p24 / ELISA | - | HXB2 | MT-2 | 0.0519 µM
CCCCCCCCCCCCCCCCSC1CCCC(OP(=O)([O-])OCC[N+](C)(C)C)C1 | plaque count / syncytia | - | - | CEM + CEM-SS | 0.42 µM
Nc1nccc2c1ncn2[C@@H]1O[C@H](CO)[C@@H](O)[C@H]1O | p24 | - | 14A-4/87 PRE-AZT | PBMC | 0.122 µM
COCCOc1cc(Cl)ccc1CNC(=O)C[C@@]12CC[C@]3(C)[C@H](CC[C@@H]4[C@@]5(C)CC[C@H](OC(=O)[C@H]6C[C@@H](C(=O)O)C6(C)C)C(C)(C)[C@@H]5CC[C@]43C)C1=C(C(C)C)C(=O)C2 | p24 / ELISA | - | 92HT599 | MT-2 | <1 µM
CC#Cc1cn([C@@H]2O[C@H](COP(=O)(OCC)Oc3ccccc3)[C@@H](O)[C@@H]2O)c(=O)[nH]c1=O | plaque count | - | HXB2 | HeLa | >50 µM